One sequence from article PMC9342713 can be followed below.

The target of the data set is T1, DitR (Stenotrophomonas maltophilia K279a) (UniProt B2FL17).
T1 sequence (looked up): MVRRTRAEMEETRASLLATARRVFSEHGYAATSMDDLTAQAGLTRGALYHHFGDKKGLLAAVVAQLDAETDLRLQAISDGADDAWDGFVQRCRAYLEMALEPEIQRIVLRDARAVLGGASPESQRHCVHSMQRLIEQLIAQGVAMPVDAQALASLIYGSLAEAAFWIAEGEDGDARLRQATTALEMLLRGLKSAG
The experiment in a line: EMSA. The conditions noted are these: 50 nM DitR, 0 mM diamide; recombinant protein; residues 1-195; protein details: 6xHis (pETBlue-2, NcoI/XhoI); label: 32P (primer-labeled); probe letters rebuilt from the primers and the genome.

For at least one entry, the source does not settle the construct or the ends of the probe. At least one verdict was read from the data and is not stated in words by the source. Tags and fusion partners may be left off the protein sequences shown.

As to “GGGGGCGGCGAACAGGTCGCGGTAGGGGGTGGCCATCGGGATCTCCAGGGCAGCGGCTTGCCTGGCGCTCCCGGCGCCACGACAATACATACAGAGCGTATGAATAAGAGCCTACATTCATACGCGTCGTATGTAAATAATCATGCACTGCGTATGTAAGGAGCTCCGGATGGTCCGTCGCACCCGCGCCGAAATGGAAGAAAC (double strand) [mfsBC promoter fragment, 204 bp]”, the binding result is “binds”.
